Pooled drug test results. Numbers come from NIAID ChemDB, via PubChem.

Common to all: host cell toxicity; cell line: MT-4; read-out: CC50

Conditions beyond the fields shown may differ between rows. CCn is the concentration with n% toxicity to the cells.

smiles | result
CCOC(=O)c1cn(CC(O)CNc2ccc(C(=O)OC)cc2)cc1-c1ccccc1 | 61.3 µM
[N-]=[N+]=N[C@H]1C[C@H](n2cc(Br)c(=O)[nH]c2=O)O[C@@H]1CO | 141 µM
CC(C)(C)NC(=O)c1ccccc1NCC(O)Cn1c(C(=O)NC(C)(C)C)cc2cc(Cl)ccc21 | 66 µM
C=C(C)COCn1c(Cc2c(F)c(F)cc(F)c2F)c(CC)c(=O)[nH]c1=O | 38 µM
CC(C)CN(C[C@@H](O)[C@H](Cc1ccccc1)NC(=O)O[C@H]1CO[C@H]2OCC[C@H]21)S(=O)(=O)c1ccc2nc(CO)[nH]c2c1 | >100 µM
C=C(C)[C@@H]1CC[C@]2(C(=O)NCCCCCCCNC(C)=O)CC[C@]3(C)[C@H](CC[C@@H]4[C@@]5(C)CC[C@H](OC(=O)CC(C)(C)C(=O)O)C(C)(C)[C@@H]5CC[C@]43C)[C@@H]12 | 8 µM
Nc1nc(N)c2ncn([C@H]3C=C[C@@H](CO)O3)c2n1 | 34 µM
COCc1cn([C@H]2CC[C@@H](COC(=O)c3ccc(C)cc3)O2)c(=O)[nH]c1=O | 200 µM
COc1cc(O)c2c(c1)C(=O)c1c(cc3c(c1O)-c1c(cc(C)c(C(=O)N[C@H](C)C(=O)O)c1O)[C@H](O[C@@H]1O[C@H](C)[C@H](N)[C@H](O[C@@H]4OC[C@@H](O)[C@H](O)[C@@H]4O)[C@H]1O)[C@H]3O)C2=O | >100 µg/mL
Nc1nc2c(ncn2[C@H]2C=C[C@@H](COP(=O)(O)OP(=O)(O)OP(=O)(O)O)C2)c(=O)[nH]1 | 4.6 µM
Cc1cn([C@H]2C[C@H](O[Si](C)(C)C(C)(C)C)[C@@H](CO)O2)c(=O)[nH]c1=O | 34 µg/mL
Nc1ccn([C@@H]2OC[C@H](CO)[C@H]2O)c(=O)n1 | >100 µM
CCc1c(Sc2cc(C)cc(C)c2)n(C/C=C/c2ccco2)c(=O)[nH]c1=O | >1 µM
Nc1nc(=O)n([C@H]2C[C@H](F)[C@@H](CO)O2)cc1Br | 20 µM
Cc1c(Sc2ccccc2)n(C/C=C/C2CCCCC2)c(=O)[nH]c1=O | >1 µM
CC(C)CN(C[C@@H](O)[C@H](Cc1ccccc1)NC(=O)OCc1cncs1)S(=O)(=O)c1ccc2ncn(C)c2c1 | >100 µM
Nc1ncnc2c1ncn2N1CC[C@H](CO)[C@H]1CO | >10 µg/mL
C=C(C)[C@@H]1CC[C@]2(C(=O)NCCCCCCCCNC(C)=O)CC[C@]3(C)[C@H](CC[C@@H]4[C@@]5(C)CC[C@H](OC(=O)CC(C)(C)C(=O)O)C(C)(C)[C@@H]5CC[C@]43C)[C@@H]12 | 7 µM
CC(=O)O[C@H]1[C@H](n2cc(C)c(=O)[nH]c2=O)O[C@H](COC(=O)c2ccccc2)C12OS(=O)(=O)C=C2N | >100 µg/mL
COC(=O)Nc1nc2ccc(S(=O)(=O)N(CC(C)C)C[C@@H](O)[C@H](Cc3ccccc3)NC(=O)COc3c(C)cc(N(C)C)cc3C)cc2[nH]1 | >100 µM
C=C(C)[C@@H]1CC[C@]2(C(=O)NCC(=O)N[C@@H](CC(C)C)C(=O)O)CC[C@]3(C)[C@H](CC[C@@H]4[C@@]5(C)CC[C@H](OC(=O)CC(C)(C)C(=O)O)C(C)(C)[C@@H]5CC[C@]43C)[C@@H]12 | >10 µM
CC(=O)Nc1nc2ccc(S(=O)(=O)N(CC(C)C)C[C@@H](O)[C@H](Cc3ccccc3)NC(=O)O[C@H]3CCOC3)cc2[nH]1 | >100 µM
CCN(CC)c1cc(-c2ccc(OCCCCC3=NCCO3)cc2O)on1 | 34 µM
C=CCOCn1c(Cc2cc(C(F)(F)F)cc(C(F)(F)F)c2)c(C(C)C)c(=O)[nH]c1=O | >100 µM
CCc1c(Sc2cc(C)cc(C)c2)n(C/C=C/c2cccs2)c(=O)[nH]c1=O | >1 µM
CC(C)CN(C[C@@H](O)[C@H](Cc1ccccc1)NC(=O)O[C@H]1CO[C@H]2OCC[C@H]21)S(=O)(=O)c1ccc2ncn(CCc3ccccc3)c2c1 | 79.4 µM
CC(C)C([NH3+])C(=O)OC(C)C1C/C=C/CCC(O)C(C)(C)C2CCC(C)C3(O2)O[B-]24OC3C(=O)OC3COC(CCCC(O)C(C)(C)C5CCC(C)C(O5)(O2)C(O4)C(=O)O1)C3 | 0.22 µM
C=C(C)[C@@H]1CC[C@]2(C(=O)NCCCCCCCCCCC(=O)O)CC[C@]3(C)[C@H](CC[C@@H]4[C@@]5(C)CC[C@H](OC(=O)C(C)(C)CC(=O)O)C(C)(C)[C@@H]5CC[C@]43C)[C@@H]12 | 8 µM
CCN(CC)c1cc(-c2ccc(OCCCCCNC(C)=O)cc2O)on1 | 22 µM
CCOC(=O)c1cn(CC(O)CNc2cccc(N)c2)cc1-c1ccccc1 | 4.3 µM
CC(C)(C)[Si](C)(C)OC[C@H]1O[C@@H](n2ccc(=O)[nH]c2=O)[C@H](O[Si](C)(C)C(C)(C)C)C12OS(=O)(=O)C=C2N | 3.1 µg/mL
Nc1nc2c(ncn2[C@H]2C=C[C@@H](CO)O2)c(=O)[nH]1 | 11 µM
CCc1cn([C@H]2C[C@H](F)[C@@H](CO)O2)c(=O)[nH]c1=O | >625 µM
CCN(CC)c1cc(-c2ccc(OCCCCC#N)cc2O)on1 | 5.6 µM
C#CCOCn1c(Cc2cc(C(F)(F)F)cc(C(F)(F)F)c2)c(CC)c(=O)[nH]c1=O | >100 µM
Cc1c(Sc2ccccn2)n(COCCSc2ccccn2)c(=O)[nH]c1=O | >1 µM
CCN(CC)c1cc(-c2ccc(OCCCCC#N)cc2OC)on1 | 5.8 µM
Cc1c(Sc2ccccc2)n(COCCNC(=O)c2ccccc2)c(=O)[nH]c1=O | >1 µM
C=CCOCn1c(Cc2c(F)c(F)cc(F)c2F)c(CC)c(=O)[nH]c1=O | >100 µM
CCOC(=O)c1cn(CC(O)CNc2ccccc2C)cc1-c1ccccc1 | 33 µM
CC(C)CN(C[C@@H](O)[C@H](Cc1ccccc1)NC(=O)O[C@H]1CO[C@H]2OCC[C@H]21)S(=O)(=O)c1ccc2ncn(Cc3ccccc3)c2c1 | 63.1 µM
Nc1ncnc2c1ncn2[C@H]1CC[C@@H](CO)O1 | 890 µM

5 of the rows above, restated:

smiles,result
C=C(C)[C@@H]1CC[C@]2(C(=O)NCCCCCCCCCCC(=O)O)CC[C@]3(C)[C@H](CC[C@@H]4[C@@]5(C)CC[C@H](OC(=O)C(C)(C)CC(=O)O)C(C)(C)[C@@H]5CC[C@]43C)[C@@H]12,8 µM
C=C(C)[C@@H]1CC[C@]2(C(=O)NCCCCCCCCNC(C)=O)CC[C@]3(C)[C@H](CC[C@@H]4[C@@]5(C)CC[C@H](OC(=O)CC(C)(C)C(=O)O)C(C)(C)[C@@H]5CC[C@]43C)[C@@H]12,7 µM
COc1cc(O)c2c(c1)C(=O)c1c(cc3c(c1O)-c1c(cc(C)c(C(=O)N[C@H](C)C(=O)O)c1O)[C@H](O[C@@H]1O[C@H](C)[C@H](N)[C@H](O[C@@H]4OC[C@@H](O)[C@H](O)[C@@H]4O)[C@H]1O)[C@H]3O)C2=O,>100 µg/mL
CCN(CC)c1cc(-c2ccc(OCCCCC#N)cc2OC)on1,5.8 µM
CC(C)CN(C[C@@H](O)[C@H](Cc1ccccc1)NC(=O)O[C@H]1CO[C@H]2OCC[C@H]21)S(=O)(=O)c1ccc2nc(CO)[nH]c2c1,>100 µM